Results of unrelated studies side by side (data: NIAID ChemDB).

All rows: tests in culture

Inhibition is in % at the dose shown (toxicity tests: loss of growth or viability). Zones are inhibition diameters on agar. A number after MIC or MFC names an inhibition level or a share of isolates. Neighbouring rows are from separate reports. ECn: concentration that inhibits the pathogen or its effect by n%. An empty or dashed field is not shown.

compound	organism	strain or isolate	changes	cell line	method	measure	dose	result
C=CCc1ccc(O)c(-c2ccc(O)c(CC=C)c2)c1	Candida albicans	TW 00313	-	-	broth dilution	MIC	-	64 µg/mL
CCCSc1ccc2nc(NC(=O)OC)[nH]c2c1	Vittaforma corneae	-	-	RK-13	-	inhibition	0.001 µg/mL	4.1%
CCO/N=C/c1ccc(OCCC2CCN(c3ccc(C)nn3)CC2)cc1	Rhinovirus	FO2-2547 (ICAM-1 receptor group 70)	-	KB	neutral red	EC50	-	2.174 µM
CCOC(=O)Nc1cc2[nH]c(=O)c(-c3ccccc3)nc2c(N)n1	Encephalitozoon intestinalis	-	-	RK-13	-	inhibition	0.1 µg/mL	71%
CN[C@@H]1[C@H](O[C@H]2[C@H](O[C@H]3[C@H](O)[C@@H](O)[C@H](N=C(N)N)[C@@H](O)[C@@H]3N=C(N)N)O[C@@H](C)[C@]2(O)C=O)O[C@@H](CO)[C@H](O)[C@H]1O	Staphylococcus aureus	-	-	-	agar diffusion	zone	250 µg/disc	14 mm
CN(C)[C@@H]1C(=O)C(C(N)=O)=C(O)[C@@]2(O)C(=O)C3=C(O)c4c(O)c(NC(=O)CNc5ccccc5)cc(F)c4C[C@H]3C[C@@H]12	Streptococcus pneumoniae	106-49619	-	-	agar diffusion	EC50	-	2 µg/mL
CNC1CCc2cc(OC)c(OC)c(OC)c2-c2ccc(OC)c(=O)cc21	Encephalitozoon intestinalis	-	-	RK-13	-	inhibition	0.1 µg/mL	59.2%
Nc1ncnc2c1ncn2C[C@@H](CO)OCP(=O)(O)O	Adenovirus	Chicago (type 1)	-	-	cytopathic effect	EC50	-	4 µg/mL
C#CC[C@@H](C(=O)N[C@H](/C=C/C(=O)OCC)C[C@@H]1CCNC1=O)n1cccc(NC(=O)c2cc(C)on2)c1=O	Rhinovirus	Serotype 78	-	H1-HELA	cytopathic effect / XTT	EC50	-	0.05 µM
CC[C@H]1OC(=O)[C@H](C)[C@@H](O[C@H]2C[C@@](C)(OC)[C@@H](O)[C@H](C)O2)[C@H](C)[C@@H](O[C@@H]2O[C@H](C)C[C@H](N(C)C)[C@H]2O)[C@](C)(OC)C[C@@H](C)C(=O)[C@H](C)[C@@H](O)[C@]1(C)O	Mycobacterium massiliense	V150	-	-	broth dilution	MIC	-	1 µg/mL
C[C@H]1COc2c(N3CCN(C)CC3)c(F)cc3c(=O)c(C(=O)O)cn1c23	Streptococcus pneumoniae	Clinical isolate CP1000	-	-	-	MIC	-	1 µg/mL
COc1cc(Cc2cnc(N)nc2N)cc(OC)c1OCCCNc1ccc(S(=O)(=O)c2ccc(N)cc2)cc1	Mycobacterium ulcerans	Isolate 5155	-	-	-	MBC	-	8 µg/mL
C[C@H]1[C@H](O)[C@@H](C)/C=C/C=C/C=C/C=C/C=C/C=C/C=C/[C@H](O[C@@H]2O[C@H](C)[C@@H](O)[C@H](N)[C@@H]2O)C[C@@H]2O[C@](O)(C[C@@H](O)C[C@@H](O)CC[C@H](O)[C@@H](O)C[C@@H](O)CC(=O)O[C@H]1C)C[C@H](O)[C@H]2C(=O)O	Herpes simplex virus 1	KOS	-	HeLa	cytopathic effect	EC50	-	>200 µg/mL
CC(C)=CCN1Cc2cc(Cl)cc3[nH]c(=S)n(c23)C[C@@H]1C	HIV-1	-	RT-L74V	MT-4	-	EC95	-	1.5 µM
CO[C@H]1/C=C/O[C@@]2(C)Oc3c(C)c(O)c4c(O)c(c(/C=N/N5CCN(C)CC5)c(O)c4c3C2=O)NC(=O)/C(C)=C\C=C\[C@H](C)[C@H](O)[C@@H](C)[C@@H](O)[C@@H](C)[C@H](OC(C)=O)[C@@H]1C	Staphylococcus aureus	Newman	-	-	-	MIC	-	0.002 µg/mL
COc1ccc(C)cc1NCc1cnc2nc(N)nc(N)c2c1C	Encephalitozoon intestinalis	-	-	RK-13	-	inhibition	1 µg/mL	68.7%
CN(C)c1cc(NC(=O)CNC(C)(C)C)c(O)c2c1C[C@H]1C[C@H]3[C@H](N(C)C)C(=O)C(C(N)=O)=C(O)[C@@]3(O)C(=O)C1=C2O	Mycobacterium massiliense	X19	-	-	broth dilution	MIC	-	2 µg/mL
CC(C)[C@@H](C)/C=C/[C@@H](C)[C@H]1CC[C@H]2C3=CC=C4C[C@@H](O)CC[C@]4(C)[C@H]3CC[C@]12C	Herpes simplex virus 1	KOS	-	HeLa	cytopathic effect	EC50	-	>200 µg/mL
CCCCC1=Nc2c(cc(NC(=O)OCC)nc2N)NC1C	Encephalitozoon intestinalis	-	-	RK-13	-	inhibition	0.01 µg/mL	19.1%
C[C@H]1CCC/C=C/[C@@H]2C[C@H](O)C[C@H]2[C@@H](O)/C=C/C(=O)O1	Herpes simplex virus 1	KOS	-	HeLa	cytopathic effect	EC50	-	>200 µg/mL
CC[C@H]1OC(=O)[C@H](C)[C@@H](O[C@H]2C[C@@](C)(OC)[C@@H](O)[C@H](C)O2)[C@H](C)[C@@H](O[C@@H]2O[C@H](C)C[C@H](N(C)C)[C@H]2O)[C@](C)(OC)C[C@@H](C)C(=O)[C@H](C)[C@@H](O)[C@]1(C)O	Staphylococcus aureus	16 strains (methicillin- quinolone-resistant)	-	-	-	MIC90	-	>32 µg/mL
Nc1ccn([C@@H]2C[C@H](CO)[C@@H](O)[C@H]2O)c(=O)n1	Vesicular stomatitis virus	-	-	PRK	cytopathic effect	EC50	-	4 µg/mL
O=C(O)C1CSCN1	Herpes simplex virus 1	KOS	-	HeLa	cytopathic effect	EC50	-	>200 µg/mL
NC(=O)c1nc(F)c[nH]c1=O	Influenza C virus	Taylor/1233/47	-	MDCK	plaque count	EC50	-	0.044 µg/mL
CCOC(=O)Nc1cc(NC(C)/C(=N/O)c2cccc([N+](=O)[O-])c2)c([N+](=O)[O-])c(N)n1	Encephalitozoon intestinalis	-	-	RK-13	-	inhibition	1 µg/mL	0%
COc1cc(Cc2cnc(N)nc2N)cc(OC)c1OC	Mycobacterium ulcerans	Isolate 842	-	-	-	MBC	-	>32 µg/mL
CC(=O)N1CCN(c2ccc(OC[C@H]3CO[C@](Cn4ccnc4)(c4ccc(Cl)cc4Cl)O3)cc2)CC1	Candida albicans	Isogenic isolate 16 CDR	-	-	-	MIC	-	0.13 µg/mL
O=c1cnn([C@@H]2O[C@H](CO)[C@@H](O)[C@H]2O)c(=O)[nH]1	Dengue virus	Type 1 (Hawaii)	-	VERO	virus yield	EC50	-	<3.3 µg/mL
C[C@H](Cc1ccc(O)c(O)c1)[C@@H](C)Cc1ccc(O)c(O)c1	Candida albicans	CCC 129-2000	-	-	broth dilution	MIC50	-	125 µg/mL
Nc1ncnc2c1ncn2C[C@H](CO)OCP(=O)(O)O	Adenovirus	Chicago (type 1)	-	-	virus yield	EC90	-	0.3 µg/mL
COc1cc2c(c(OC)c1OC)-c1ccc(OC)c(=O)cc1[C@@H](NC(C)=O)CC2	Encephalitozoon intestinalis	-	-	RK-13	-	inhibition	0.1 µg/mL	69%
COC1=CC(=O)C[C@@H](C)[C@]12Oc1c(Cl)c(OC)cc(OC)c1C2=O	Herpes simplex virus 1	KOS	-	HeLa	cytopathic effect	EC50	-	>200 µg/mL
Nc1nc2c(ncn2CCOCP(=O)(O)O)c(=O)[nH]1	Parainfluenza virus	14702 (TYPE 3)	-	-	neutral red	EC50	-	10 µg/mL

The last 3 rows once more:

| compound | organism | strain or isolate | changes | cell line | method | measure | dose | result |
|---|---|---|---|---|---|---|---|---|
| COc1cc2c(c(OC)c1OC)-c1ccc(OC)c(=O)cc1[C@@H](NC(C)=O)CC2 | Encephalitozoon intestinalis | - | - | RK-13 | - | inhibition | 0.1 µg/mL | 69% |
| COC1=CC(=O)C[C@@H](C)[C@]12Oc1c(Cl)c(OC)cc(OC)c1C2=O | Herpes simplex virus 1 | KOS | - | HeLa | cytopathic effect | EC50 | - | >200 µg/mL |
| Nc1nc2c(ncn2CCOCP(=O)(O)O)c(=O)[nH]1 | Parainfluenza virus | 14702 (TYPE 3) | - | - | neutral red | EC50 | - | 10 µg/mL |